Drawing on patent US20060166867A1, “Novel conjugates of polysaccharides and uses thereof” (priority 2003, published 2006), this text covers Cytotoxicity and toxicity for four substances.

The test system of this data set is MT2 cells. The data set is classed as cell-based. The protocol: Cytotoxicity of the various pAACs was determined using the trypan blue exclusion assay. In brief, a sample of the cell suspension was diluted 1:1 (v/v) with 0.4% trypan blue and the cells were counted using a hemocytometer. Results are expressed as the percentage of dead cells.
HIV-1 isolates were propagated by subculture in MT2 cells (Litovchick et al. (2001) supra). Aliquots of cell-free culture supernatants were used as viral inoculum. PAACs were dissolved in the RPMI 1640 medium. Cytotoxicity determinations were carried out in MT2 cells by trypan blue exclusion assay. Viral inhibition was determined by incubating MT2 or cMAGI HIV-1 reporter cells with 0.2-0.5 multiplicity of infection of HIV-1 wild type or resistant virus for 4 days at 37° C. in the presence or absence of various concentrations of pAACs. HIV-1 infection of cMAGI cells was determined by counting the number of HIV-1-infected cells (stained blue). The cytopathic effects of the viral infection of MT2 cells were also analyzed by microscopic assessment of syncytium formation.

The mark [1] stands for this setting: Table 4, tryphan blue exclusion assay for MT2 cells.

Read-outs that look alike come from different tables or passages of the source.

Under setting [1], D-Arg-6-mer-neomycin [Compound 11] came in with a Cytotoxicity of 155 µM.

The substance D-Arg-9-mer-neomycin [Compound 14] gave a Cytotoxicity under setting [1] of 120 µM.

The substance L-Arg-6-mer-neomycin [Compound 4] had a Cytotoxicity (Table 3, trypan blue exclusion) of 200 µM. Besides, for the setting “at concentrations as high as 200 μM”, the toxicity entry is “non-toxic”.

As for L-Arg-9-mer-neomycin [Compound 8], the Cytotoxicity (Table 3, trypan blue exclusion) was found to be 150 µM.
